Test results reported in US20180280321A1, “COMPOSITIONS AND METHODS THAT INHIBIT QUORUM SENSING” (The Office of Innovation Commercialization, priority 2015, published 2018).

Assays:
[1] = test system: S. aureus gene transcription (LAC, LACΔagr); experiment: Transcriptional analysis of the agr specificity of OHM (qPCR); details: 5 μg/mL OHM, five hours, relative to 16S, values shown if ≥2-fold
[2] = test system: alpha-hemolysin (Hla); experiment: Rabbit red blood cell lysis assay (Hla production); details: LAC supernatant, 5 μg/mL OHM

SMILES: O=C1c2cc(O)cc(O)c2C(=O)c2c(O)cc(CO)cc21 [OHM, 1,3,8-trihydroxy-6-(hydroxymethyl)anthracene-9,10-dione]
- Fold change in gene expression (Vehicle/OHM treatment), NaMDR (SAUSA300_0335) ([1]; LAC): −3.23 fold
- Fold change in gene expression (Vehicle/OHM treatment), mdrA (SAUSA300_2299) ([1]; LAC): <2 fold
- Fold change in gene expression (Vehicle/OHM treatment), norA (SAUSA300_0680) ([1]; LAC): <2 fold
- Fold change in gene expression (Vehicle/OHM treatment), NaMDR (SAUSA300_0335) ([1]; Δagr): −2.26 fold
- production of Hla (red blood cell lysis, HA50) [2]: inhibited production of Hla
